Measured values from several laboratories, pooled; numbers as filed in NIAID ChemDB.

All rows: target-level tests; organism: HIV-1; target: Protease; read by: fluorescence; read-out: IC50

Blank or dashed fields: not listed here.

structure	strain or isolate	value
O=[N+]([O-])c1ccc(CO[C@@H]2[C@H](O)[C@@H](O)[C@@H](OCc3ccc([N+](=O)[O-])cc3)[C@@H](Cc3ccccc3)S(=O)(=O)[C@@H]2Cc2ccccc2)cc1		<2 µM
CCCCCCCCCCCCCCCC(=O)N[C@@H](CO)C(=O)N[C@H](C(=O)N[C@@H](CCC(=O)O)C(=O)N[C@@H](CC(C)C)C(=O)O)c1ccc(OC(=O)c2ccccc2)cc1		0.4 µM
CC(C)[C@H](NC(=O)N(C)Cc1ccccn1)C(=O)N[C@@H](Cc1ccccc1)[C@@H](O)[C@H](O)[C@H](Cc1ccccc1)NC(=O)[C@@H](NC(=O)N(C)Cc1ccccn1)C(C)C		>0.001 µM
O=C(N[C@@H](Cc1ccccc1)[C@H](Cc1ccccc1)n1cc(CN2CCC(n3c(=O)[nH]c4ccccc43)CC2)nn1)OC1CCCC1		>5 µM
O=C1c2ccccc2C(=O)c2c(O)ccc(O)c21		35 µM
O=C(O)CCCCCCCCCC(=O)O		>1000 µM
O=C1c2ccccc2C(=O)c2c1cc(S(=O)(=O)O)c(O)c2O		8 µM
Cc1ccc(Cl)cc1N1CCN(Cc2cn([C@@H](Cc3ccccc3)[C@H](Cc3ccccc3)NC(=O)CC3CCCC3)nn2)CC1		>5 µM
[Cl][Pd][Cl]	SF2	>400 µM
CC[C@H](C)[C@H](NC(=O)[C@H](Cc1ccccc1)NC[C@@H](O)[C@H](Cc1ccccc1)NC(=O)[C@@H](NC(=O)[C@H](CC(C)C)NC(C)=O)C(C)C)C(=O)N[C@H](C(N)=O)C(C)C		0.005 µM
CCCCCCCCCCCCCCCC(=O)N[C@@H](Cc1ccc2ccccc2c1)C(=O)N[C@@H](CCC(=O)O)C(=O)N[C@@H](CC(C)C)C(=O)O		0.2 µM
CC[C@H](C)C(NC(=O)[C@@H]1CCCN1C[C@H](O)[C@@H]1Cc2ccc(cc2)OCC(=O)NCC(=O)N[C@@H](CC(N)=O)C(=O)N1)C(=O)N[C@H](C(N)=O)C(C)C		0.037 µM
N#Cc1ccc(O[C@@H]2[C@H](O)[C@@H](O)[C@@H](Oc3ccc(C#N)cc3)CS(=O)[C@@H]2Cc2ccccc2)cc1		10–50 µM
CCN(Cc1cccc(S(=O)(=O)[O-])c1)c1ccc(C(=C2C=CC(=[N+](CC)Cc3cccc(S(=O)(=O)O)c3)C=C2)c2ccc(S(=O)(=O)O)cc2)cc1		12 µM
[O]=[V](=[O])[O-]	SF2	7.6 µM
CC(C)(C)NC(=O)C1(CCc2ccccc2)OC(=O)C(CCc2ccccc2)=C1O		3 µM
CCCCCCCCCCCCCCCC(=O)N[C@@H](CO)C(=O)N[C@@H](Cc1ccc2ccccc2c1)C(=O)N[C@@H](CCC(=O)O)C(=O)N[C@@H](Cc1ccc2ccccc2c1)C(=O)O		0.23 µM
CC[C@H](C)C(NC(=O)[C@@H]1CCCN1C[C@@H](O)[C@@H]1Cc2ccc(cc2)OCC(=O)NCC(=O)N[C@@H](CC(N)=O)C(=O)N1)C(=O)N[C@H](C(N)=O)C(C)C		0.7 µM
O=C(O)/C=C/CCCCCCCCC(=O)O		>1000 µM
Cc1cc(O)c2c(c1)C(=O)c1cc(O)cc(O)c1C2=O		210 µM
Cc1ccc(Cl)cc1N1CCN(Cc2cn([C@@H](Cc3ccccc3)[C@H](Cc3ccccc3)NC(=O)OC3CCCC3)nn2)CC1		<5 µM
O=C(O)CN(CC(=O)O)Cc1cc2c(c(O)c1O)C(=O)c1ccccc1C2=O		190 µM
[Cl][Pt-2]([Cl])([Cl])[Cl].[K+].[K+]	SF2	>1000 µM
O=S1(=O)[C@H](Cc2ccccc2)[C@H](OCc2ccccn2)[C@H](O)[C@@H](O)[C@@H](OCc2ccccn2)[C@H]1Cc1ccccc1		<2 µM
O=C1C=CC(=O)c2c(O)cccc21		265 µM
O=C1N(CC2CC2)[C@H](Cc2ccccc2)[C@H](O)CN(Cc2ccccc2)N1CC1CC1		0.0013 µM
Cc1cccc(CO[C@@H]2[C@H](O)[C@@H](O)[C@@H](OCc3cccc(C)n3)[C@@H](Cc3ccccc3)S(=O)(=O)[C@@H]2Cc2ccccc2)n1		10–50 µM
CC[C@H](C)[C@H](NC(=O)[C@@H]1CCCN1C[C@H](O)[C@H](Cc1ccccc1)NC(=O)[C@H](CC(N)=O)NC(=O)[C@H](CC(C)C)NC(C)=O)C(=O)N[C@H](C(N)=O)C(C)C		0.009 µM
CO[C@@H](Cc1ccccc1)C(F)(F)C(=O)[C@H](Cc1ccccc1)NC(=O)[C@@H](NC(=O)OCc1ccccc1)C(C)C		>0.01 µM
O=C1N(c2ccncc2)[C@H](Cc2ccccc2)[C@H](O)CN(Cc2ccccc2)N1c1ccncc1		0.0041 µM
CC(C)[C@H](NC(=O)N(C)Cc1ccccn1)C(=O)N[C@@H](Cc1ccccc1)[C@@H](O)[C@H](O)[C@H](Cc1ccccc1)NC(=O)[C@@H](NC(=O)N(C)Cc1ccccn1)C(C)C		0.0017 µM
O[C@@H]1[C@@H](O)[C@@H](OCc2ccccc2)CS[C@H](Cc2ccccc2)[C@@H]1OCc1ccccc1		10–50 µM
CC(=O)N[C@H](C(=O)N[C@H](C(=O)NC(Cc1ccccc1)C(O)C(O)C(Cc1ccccc1)NCc1ccccc1)C(C)C)C(C)C		<270 µM
Cc1ccc(Cl)cc1N1CCN(Cc2cn([C@@H](Cc3ccccc3)[C@H](Cc3ccccc3)NC(=O)OCC3CCC3)nn2)CC1		<5 µM
CC(C)[C@H](NC(=O)OCc1ccccc1)C(=O)N[C@@H](Cc1ccccc1)[C@H](O)[C@H](O)[C@H](Cc1ccccc1)NC(=O)OC(C)(C)C		<0.005 µM
CC[C@H](C)[C@H](NC(=O)[C@@H]1CCCN1C[C@@H](O)[C@H](Cc1ccccc1)NC(=O)[C@H](CC(N)=O)NC(=O)[C@H](CC(C)C)NC(=O)[C@H](CO)NC(C)=O)C(=O)N[C@H](C(=O)OC)C(C)C		0.044 µM
CC(C)C[C@H](NC(=O)[C@H](CCC(=O)O)NC(=O)[C@H](Cc1ccc(O)cc1)NC(=O)[C@H](CO)NC(=O)[C@@H](N)Cc1ccccc1)C(=O)O		0.7 µM
Cc1cc(C)cc(O[C@@H]2[C@H](O)[C@@H](O)[C@@H](Oc3cc(C)cc(C)c3)[C@@H](Cc3ccccc3)S(=O)(=O)[C@@H]2Cc2ccccc2)c1		<2 µM

For reference, 3 entries again:

| structure | strain or isolate | value |
|---|---|---|
| [Cl][Pt-2]([Cl])([Cl])[Cl].[K+].[K+] | SF2 | >1000 µM |
| Cc1cc(O)c2c(c1)C(=O)c1cc(O)cc(O)c1C2=O |  | 210 µM |
| CC(C)(C)NC(=O)C1(CCc2ccccc2)OC(=O)C(CCc2ccccc2)=C1O |  | 3 µM |

Two numbers with a dash give a range or band. ICn: concentration for n% inhibition. Neighbouring rows are from separate reports.